Results taken from patent publication US20160052997A1.

Columns and labels:
[1] = target: HA of A/Vietnam/1203/04 (H5N1) virus (Influenza A virus A/Vietnam/1203/04 (H5N1)); test: cell-based or functional assay
[2] = target: HA of A/Shanghai/1/2013 (H7N9) virus (Influenza A virus A/Shanghai/1/2013 (H7N9)); test: cell-based or functional assay

CT-P27 gave an EC50, microneutralization test [1] of 7.29 µg/mL and an IC50, in vitro neutralization assay, wild type virus [2] of 13.1 µg/mL.
